We go through 3 sequences from publication PMC5650642.

Amino acid sequences for entries named in this document (tags omitted). Residues count along the entry.
UniProt Q05938, 1-176: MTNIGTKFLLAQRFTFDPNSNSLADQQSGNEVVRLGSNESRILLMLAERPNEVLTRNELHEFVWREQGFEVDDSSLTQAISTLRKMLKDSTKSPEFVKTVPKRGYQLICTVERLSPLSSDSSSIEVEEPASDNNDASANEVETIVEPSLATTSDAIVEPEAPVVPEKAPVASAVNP

The target of data set [1] is T1, His-OpaR (Vibrio parahaemolyticus RIMD2210633) (UniProt Q79YV4).
T1 sequence: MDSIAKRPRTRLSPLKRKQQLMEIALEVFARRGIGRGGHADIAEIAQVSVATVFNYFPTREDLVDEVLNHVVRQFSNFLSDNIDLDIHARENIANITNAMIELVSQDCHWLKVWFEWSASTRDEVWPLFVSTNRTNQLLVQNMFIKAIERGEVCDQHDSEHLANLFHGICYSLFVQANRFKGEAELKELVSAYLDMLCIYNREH
Nature of the data set: EMSA. The settings on record: recombinant protein; residues 1-204; protein details: 6xHis (pET28a); label: 5'-32P; probe letters rebuilt from the primers and the genome.

The target of data set [2] is His-ToxR (Vibrio parahaemolyticus RIMD2210633) (UniProt Q05938). Kind of data set: EMSA. The settings on record: recombinant protein; residues 1-176; protein details: 6xHis (pET28a); label: 5'-32P; probe letters rebuilt from the primers and the genome.

For “CAATGGTGAATATGCCGTGTTGATAATATCTATTAATATTATATAGTTACATGCACGTCTATACCCTAGGTGTAGAGTTCTGCATTAGGTAGTGATTACTACCTGAGTTGTGTATCTATGATGAAGTGAAATTAGCCTAGCATCGCTTCATATTAGTTACACCTTTGTGGGTGTGACACGCACTCACCTTTTTATTCATACTTCCTCAGTCGCGATAGGTTATTTATTGCTACTGAGGAAGGCGTATCCCTCCAGAACCTCAACCTTCGGCTATCAGTGCTTAAATTGAATTTGTTAACTTCTGCCCAAAAGTAAAAAACTGTTTTTGCTTAAAGCCTGCCTTTTGAGTTGGATTGAAGGGTAATAAGTTTGAATTGATAGTTAAAACAACCAAATAACCTGTGGTTTTGTTATTTCTCGGGCATTTCGGTTTTCTGGAAGTTTTCTATGTGATTGAATGTTATGAATTAAATTAGTAGCATTAGCACACCAAATCGTACTTGTAAGCCTTATCAGCTTAAACGTCACCGCAACCATGTTTACGATGTTGGTTGTGGAGAATTCAAATGCATTTAGTTTGCAAATTTATACCTAGCTCGAAGCTTTCCTCCAACGAGCTATC (double strand) [VP1388 promoter EMSA fragment]”, in data set [1], the binding result is reported as “binds”. Regarding “GCCAATCTTTGCTCGTTCAGTTTCTTTTTCTCAATGGCTTTAACAACCAACTGATCAATGTATCCTTTGGCTGCACCCTGAATATCAGACACTTTGCACTCTTTTATGGAACAAATATTATTAGACCGAAATAATATTTGCTGAAACATCCTTGTTTCAAGGGTAGTATTTAAAACGAACAGTAAGCCTATTATTTTAGTTATAATTACTAAGTTATTAGACTCTTTGACTTACGCTTTCACTACCTGAATTACGTTGTTTTAGAAATTAAAATTTCAACAACGTAATATGACTTCATTTTCATTATATATTTCGACAAAGAATGATTAGCACGCTAGTAATTGAAGTAGCGCTTTATCACCCCCGAAGTCAAACATCAGCAGCGTTACGGGCTGGTTAAAGTGATGATATTTAACCGCAAATGCTCCAAGAGCAAGAGATGAACAGTTTCCCATCGTCCCCCATAACTCGTTGATAAGCAAAGGTTGTTCTGGGTTAATAAATCGCTCAGCTTTGGCACCCAGCGCGAAACCGTAATCTTCACTGTGCGCGCGCAGGTTCGTCATATCAGAATACACTTCACCGAAAGCAGTAAGCTTTTTACTCGCACGCTGTACAAGACGATACATACCTCTTCGGTCTGAAGTGTTCAGTTCTGTATCGATATAACCAAGTTGCGCTAAAGGCTTAAGTTTGAGTGTTTCTACGGTATTTCTTCGGCAAAA (double strand) [VP1400 promoter EMSA fragment]”, the binding result in data set [1] and in data set [2] was “binds” each time. With “TCTTCTTGTGAAGTCGCTGAAAAACATAATGTTAAGTTCCAACTGAGTTGATAATAAAATAATAAAGATAGATTTTTTTATTGTATTCGCCTGCTATGCCAAATGACATGCAATGCATTTTTTCTGATTTTATAGATAAAAAAAGATTTTTAGACAATAAAAAGCCGATAAATCTAATTAAAATCCATTTTGTGTGATCTTTGTTCCTAATATTAATATCAATTGGCTAATTTGCGTGTAGGAAAAATCCTATTTTTCATTCATTTTGTTAGTTTTTTATGATGTAAATGAACATTTTAATAAACTTAATATTAGGTGTTTTTTTATTATCAATTGCTGATATACGGTCTTTGCTTATTCAATTTTCTAGAATAATGCGGCTATTTATCAAGGTTCTATAATGCGCCTGTTAATGGTTGAAATGCCTATTTTGATAGTTAAAGTGTGCTTTGTTGTGGTCGCTTTATTTTATATCTTGAAAAAGAGAGTGTAATTGATATCGTCCTTCCTCCAAATAATAAAAAATAGATTTTATTGGGGAAATCAATGTCAAAATCTAGTCAAGTTGGACTCATTTATGCCATGTGTT (double strand) [VP1409 promoter EMSA fragment]”, the binding result in data set [1] and in data set [2] was “binds” throughout.
